Data on 13 compounds can be found in article PMC11676875, “In Vitro Screening of an In-House Library of Structurally Distinct Chemotypes Towards the Identification of Novel SARS-CoV-2 Inhibitors” (Pharmaceuticals, 2024).

The data set concerns SARS-CoV-2. It is filed as cell-based, SARS-CoV-2 B1.1 lineage. To be noted: ratio CC50 / IC50.

“And” between values parts separate entries of the source, which are not always exact repeats. Equal entries are not always repeated. Some results are limits rather than exact numbers.

On to `CCN(CC)CCCn1c(Cc2ccccc2)nc2cc(C(C)=NNC(N)=S)ccc21` [Compound 13], for which the S.I. is recorded as 4.8.

As for `CCN(CC)CCCn1c(Cn2nnc3ccccc32)nc2cc(Cl)ccc21` [Compound 18], the S.I. was 3.8.

Regarding `CCN(CC)CCCC(C)Nc1ccnc2cc(Cl)ccc12` (stereo not shown) [CQ, chloroquine, reference compound], the S.I. was 11 and 11.3.

Regarding `O=c1cccc2n1CC1CC2CN(C(=S)NC2CCCCC2)C1` (stereo not shown) [Compound 23], the S.I. was above 1.1.

On to `Clc1ccc2c(c1)nc(Cn1nnc3ccccc31)n2CC[C@@H]1CCCN2CCCC[C@H]12` [Compound 20], for which the S.I. was determined as 2.8.

`CC(=O)/C=C(/C)Nc1cccc2c3c([nH]c12)CCCC3` [Compound 25]: the S.I. is listed as above 1.1.

Consider `CCN(CC)CCCn1c(Cn2nnc3ccccc32)nc2cc(C(C)=NNC(N)=S)ccc21` [Compound 15, 2-(1-{2-[(1H-Benzo[d][1,2, 3]triazol-1-yl)methyl]-1-[3-(N,N-diethylamino)propyl]-1H-benzo-[d]imidazol-5-yl}ethylidene)hydrazine-1-carbothioamide], for which the S.I. turned out to be 4.5.

Regarding `c1ccc(Nc2cc3nc4ccccc4n(-c4ccccc4)c-3cc2=NCCCCC23CCCCN2CCCC3)cc1` [Compound 3], the S.I. was determined as 2.6.

On to `CC(=NNC(N)=S)c1ccc2c(c1)nc(Cc1ccccc1)n2C[C@@H]1CCCN2CCCC[C@H]12` [Compound 14, 2-(1-{2-Benzyl-1-[((1S,9aR)-octahydro-2H-quinolizin-1-yl)methyl]-1H-benzo[d]imidazol-5-yl}-ethylidene)hydrazine-1-carbothioamide], for which the S.I. is 5.7.

In the case of `Cc1ccc2c(c1)nc(Cn1nnc3ccccc31)n2CC[C@@H]1CCCN2CCCC[C@H]12` [Compound 19], the S.I. is recorded as 5.

As for `Clc1ccc2c(NCC34CCCN3CCC4)ccnc2c1` [Compound 11], the S.I. was 20 and 20.1.

With `Clc1ccc2c(NC[C@@H]3CCCN4CCCC[C@H]34)ccnc2c1` [Compound 10], the S.I. was found to be 20.

Regarding `Cc1ccc(Nc2cc3nc4ccccc4n(-c4ccc(C)cc4)c-3cc2=NCC2CCCN3CCCCC23)cc1` (stereo not shown) [Compound 2], the S.I. came out at 1.9.
